{"source": "patent US20230265170A1", "assay_in_all_cases": "cell-based or functional assay", "key": {"[1]": {"molecular_target": "SARS-CoV-2 spike (S) protein, Victoria strain (SARS-CoV-2)"}, "[2]": {"molecular_target": "SARS-CoV-2 Victoria spike (S) protein (SARS-CoV-2)"}, "[3]": {"molecular_target": "SARS-CoV-2 Beta (B.1.351) spike (S) protein (SARS-CoV-2) (UniProt P0DTC2)"}, "[4]": {"molecular_target": "SARS-CoV-2 Delta (B.1.617.2) spike (S) protein (SARS-CoV-2) (UniProt P0DTC2)"}, "[5]": {"molecular_target": "SARS-CoV-2 Omicron BA.1 spike (S) protein of the live isolate (SARS-CoV-2)"}, "[6]": {"molecular_target": "SARS-CoV-2 Victoria spike (S) protein (Wuhan + S247R) (SARS-CoV-2)"}, "[7]": {"molecular_target": "SARS-CoV-2 spike (S) protein, Victoria strain (Wuhan + S247R) (SARS-CoV-2)"}, "[8]": {"molecular_target": "SARS-CoV-2 Omicron BA.1.1 spike (S) protein (SARS-CoV-2)"}, "[9]": {"molecular_target": "SARS-CoV-2 spike (S) protein, Victoria strain (SARS-CoV-2)", "remark": "listed apart in the source"}, "[10]": {"molecular_target": "SARS-CoV-2 Gamma (P.1) spike (S) protein (SARS-CoV-2) (UniProt P0DTC2)"}, "[11]": {"molecular_target": "SARS-CoV-2 Alpha (B.1.1.7) spike (S) protein (SARS-CoV-2) (UniProt P0DTC2)"}}, "note": "Like-named read-outs stand apart in the source and are kept apart here.", "data": [{"substance": "ADG20 (antibody)", "values": [{"measurement": "IC50, pseudovirus", "setting": "[1]", "result": 8, "unit": "ng/mL"}, {"measurement": "IC50 (ug/ml), authentic virus", "setting": "[2]", "result": 0.004, "unit": "µg/mL"}, {"measurement": "IC50 (ug/ml), authentic virus", "setting": "[3]", "result": 0.01, "unit": "µg/mL"}, {"measurement": "IC50 (ug/ml), authentic virus", "setting": "[4]", "result": 0.006, "unit": "µg/mL"}, {"measurement": "IC50 (ug/ml), authentic virus", "setting": "[5]", "result": 1.1, "unit": "µg/mL"}, {"measurement": "IC50, pseudoviral neutralization", "setting": "[6]", "result": 3, "unit": "ng/mL"}, {"measurement": "IC50 (pseudovirus neutralization)", "setting": "[7]", "result": 5, "unit": "ng/mL"}, {"measurement": "IC50 (ug/ml), authentic virus", "setting": "[8]", "result": 1.27, "unit": "µg/mL"}, {"measurement": "IC50, pseudoviral neutralization", "setting": "[8]", "result": 253, "unit": "ng/mL"}, {"measurement": "IC50, pseudovirus", "setting": "[9]", "result": 3, "unit": "ng/mL"}, {"measurement": "IC50 (ug/ml), authentic virus", "setting": "[10]", "result": 0.009, "unit": "µg/mL"}, {"measurement": "IC50 (ug/ml), authentic virus", "setting": "[11]", "result": 0.006, "unit": "µg/mL"}]}]}
